Measured values from several laboratories, pooled; numbers as filed in NIAID ChemDB.

Common to all: tests in culture; organism: HIV-1; cell line: CEM; read-out: EC50

An empty or dashed field is not shown. Conditions beyond the fields shown may differ between rows. ECn is the concentration giving n% inhibition of infection, replication or growth.

{"SMILES": "Cc1cn([C@H]2C[C@H](N=[N+]=[N-])[C@@H](COC(=O)[C@H](CCCN=C(N)N)NC(=O)[C@@H]3CCCN3C(=O)[C@H](CCCCN)NC(=O)[C@@H](N)[C@@H](C)O)O2)c(=O)[nH]c1=O", "method": "antigen", "result": "0.0006 µg/mL"}
{"SMILES": "N#CCN1C(=O)N(Cc2cccc(F)c2)S(=O)(=O)c2cscc21", "changes": "RT-K103N", "method": "syncytia", "result": "28.5 µM"}
{"SMILES": "Cc1cn([C@@H]2O[C@H](CO[Si](C)(C)C(C)(C)C)[C@@]3(OS(=O)(=O)C=C3N)[C@H]2O[Si](C)(C)C(C)(C)C)c(=O)[nH]c1=O", "strain": "IIIB TIBO R82913 STR-2 (RT K103N)", "changes": "RT-K103N", "method": "syncytia", "result": "0.2 µM"}
{"SMILES": "CCN1C(=O)N(Cc2ccccc2)S(=O)(=O)c2cscc21", "changes": "RT-Y181C", "method": "syncytia", "result": ">310.2 µM"}
{"SMILES": "Fc1cccc(F)c1[C@H]1SCc2nc3ccccc3n21", "strain": "IIIB", "changes": "RT-L100I", "method": "cytopathic effect / XTT", "result": "3.12 µM"}
{"SMILES": "Cc1ccnc2c1NC(=O)c1cccnc1N2C1CC1", "strain": "IIIB nevirapine-resistant (RT Y181C)", "changes": "RT-Y181C", "method": "syncytia", "result": "5 µM"}
{"SMILES": "CCCCCCCCCCCCOC(CNC(=O)CCCCCCCCC)COP(=O)([O-])OCC[N+](C)(C)C", "strain": "IIIB", "method": "syncytia", "result": "0.1 µM"}
{"SMILES": "Cc1ccnc2c1NC(=O)c1cccnc1N2C1CC1", "strain": "C-1 (RT-K101E)", "changes": "RT-K101E", "method": "cytopathic effect", "result": "0.0051 µg/mL"}
{"SMILES": "O=C(Nc1ccc(Cl)cc1)c1ccccc1SSc1ccccc1C(=O)Nc1ccc(Cl)cc1", "method": "cytopathic effect / XTT", "result": ">8 µM"}
{"SMILES": "CCN1C(=O)N(Cc2cccc(Cl)c2)S(=O)(=O)c2cscc21", "changes": "RT-L100I", "method": "syncytia", "result": "3.6 µM"}
{"SMILES": "Cc1occc1C(=S)Nc1ccc(Cl)c(C(=O)OC2CCCC2)c1", "strain": "IIIB", "changes": "RT-L100I", "method": "syncytia", "result": "0.17 µg/mL"}
{"SMILES": "CC(C)(C)[Si](C)(C)OC[C@@H]1CC[C@H](n2cnc3c(=O)n(CC(=O)OCc4ccccc4)cnc32)O1", "strain": "IIIB", "method": "syncytia", "result": ">10 µM"}
{"SMILES": "CC[C@H]1C(=O)Nc2ccc(F)cc2N1C(=O)OC(C)C", "strain": "A-0 (RT-L100I)", "changes": "RT-L100I", "method": "cytopathic effect", "result": "0.0014 µg/mL"}
{"SMILES": "O=C(Nc1ccc([N+](=O)[O-])cc1)c1ccccc1SSc1ccccc1C(=O)Nc1ccc([N+](=O)[O-])cc1", "method": "cytopathic effect / XTT", "result": "4 µM"}
{"SMILES": "Cc1cn([C@H]2C=C[C@@H](CO[Si](C)(C)C(C)(C)C)O2)c(=O)n(CC(=O)O)c1=O", "strain": "IIIB", "method": "syncytia", "result": ">50 µM"}
{"SMILES": "CCOCn1c(Cc2ccccc2)c(C(C)C)c(=O)[nH]c1=O", "strain": "IIIB", "changes": "RT-Y188L", "method": "syncytia", "result": "5 µg/mL"}
{"SMILES": "CC(C)=CCOc1cc(NC(=S)c2ccoc2C)ccc1Cl", "strain": "IIIB", "method": "syncytia", "result": "0.0015 µg/mL"}
{"SMILES": "O=C1N(Cc2ccccc2)c2cscc2S(=O)(=O)N1Cc1ccccc1", "changes": "RT-K103N", "method": "syncytia", "result": ">10.4 µM"}
{"SMILES": "CC(C)=CCN1Cc2cccc3[nH]c(=S)n(c23)C[C@@H]1C", "strain": "IIIB nevirapine-resistant (RT Y181C)", "changes": "RT-Y181C", "method": "syncytia", "result": "2 µM"}
{"SMILES": "Cc1ccnc(N2C(=O)CSC2c2c(Cl)cccc2Cl)n1", "strain": "IIIB", "method": "cytopathic effect", "result": "0.032 µM"}
{"SMILES": "CC(C)(C)[Si](C)(C)OC[C@H]1O[C@@H](n2ccc(=O)n(CC(=O)O)c2=O)[C@H](O[Si](C)(C)C(C)(C)C)[C@@H]1O", "strain": "IIIB", "method": "syncytia", "result": ">10 µM"}
{"SMILES": "CCCCCCCCCCCC(=O)NCC(COP(=O)([O-])OCC[N+](C)(C)C)OCCCCCCCCCC", "strain": "IIIB", "method": "syncytia", "result": "0.15 µM"}
{"SMILES": "CC(C)=CCN1Cc2cc(Cl)cc3[nH]c(=S)n(c23)C[C@@H]1C", "strain": "IIIB", "method": "syncytia", "result": "0.021 µg/mL"}
{"SMILES": "CCCCCCCCCCCCOCC(COP(=O)([O-])OCC[N+](C)(C)C)OCCCCCCCCCC", "strain": "IIIB", "method": "syncytia", "result": "0.64 µM"}
{"SMILES": "Nc1ncnc2c1ncn2CC(CF)OCP(=O)(O)O", "strain": "IIIB TIBO R82150-resistant (RT L100I)", "changes": "RT-L100I", "method": "syncytia", "result": "2 µM"}
{"SMILES": "Fc1cccc(F)c1[C@@H]1SCc2nc3ccccc3n21", "strain": "IIIB", "method": "cytopathic effect / XTT", "result": "5.55 µM"}
{"SMILES": "COC(=O)[C@H](C)NP(=O)(OC[C@@H]1C=C[C@H](n2cc(C)c(=O)[nH]c2=O)O1)Oc1ccccc1", "strain": "IIIB", "method": "syncytia", "conditions": "4 d", "result": "0.18 µM"}
{"SMILES": "CCCCCCCCCC(=O)NCC(COP(=O)([O-])OCC[N+](C)(C)C)OCCCCCCCC", "strain": "IIIB", "method": "syncytia", "result": "0.77 µM"}
{"SMILES": "Fc1cccc(F)c1C1SCc2nc3ccccc3n21", "changes": "RT-K103N", "method": "cytopathic effect", "result": "15.6 µM"}
{"SMILES": "O=C(O)c1ccc(NC(=O)c2ccccc2SSc2ccccc2C(=O)Nc2ccc(C(=O)O)cc2)cc1", "method": "cytopathic effect / XTT", "result": "3 µM"}
{"SMILES": "Cc1cn([C@@H]2O[C@H](CO[Si](C)(C)C(C)(C)C)C3(OS(=O)(=O)C=C3N)[C@H]2O[Si](C)(C)C(C)(C)C)c(=O)n(C)c1=O", "strain": "IIIB TIBO R82150-resistant (RT L100I)", "changes": "RT-L100I", "method": "syncytia", "result": "0.05 µM"}
{"SMILES": "O=C(NC(C(=O)O)c1ccccc1)c1ccccc1SSc1ccccc1C(=O)NC(C(=O)O)c1ccccc1", "method": "cytopathic effect / XTT", "result": "25 µM"}
{"SMILES": "CCCCCCCCCC(=O)NCC(COP(=O)([O-])OCC[N+](C)(C)C)OCCCCCC", "strain": "IIIB", "method": "syncytia", "result": "1.5 µM"}
{"SMILES": "Cc1ccnc2c1NC(=O)c1cccnc1N2C1CC1", "changes": "RT-L100I", "method": "cytopathic effect", "result": "0.24 µM"}
{"SMILES": "CC(C)=CCN1Cc2cc(Cl)cc3[nH]c(=S)n(c23)C[C@@H]1C", "strain": "IIIB", "changes": "RT-D138K", "method": "cytopathic effect / XTT", "result": "0.16 µM"}
{"SMILES": "Cc1cn([C@H]2C[C@H](N=[N+]=[N-])[C@@H](CO)O2)c(=O)[nH]c1=O", "changes": "RT-E138K", "method": "cytopathic effect", "result": "0.016 µM"}
{"SMILES": "Cc1ccc(NC(=O)c2ccccc2SSc2ccccc2C(=O)Nc2ccc(C)cc2)cc1", "method": "cytopathic effect / XTT", "result": "9.1 µM"}
{"SMILES": "O=c1[nH]cnc2c1ncn2[C@H]1CC[C@@H](CO)O1", "strain": "IIIB TIBO R82913 STR-2 (RT K103N)", "changes": "RT-K103N", "method": "syncytia", "result": "7.5 µM"}
{"SMILES": "COc1cc(C)nc(N2C(=O)CSC2c2c(Cl)cccc2Cl)n1", "changes": "RT-E138K", "method": "cytopathic effect", "result": "0.07 µM"}
{"SMILES": "Cc1cn([C@@H]2O[C@H](CO[Si](C)(C)C(C)(C)C)[C@@H](O)[C@H]2O[Si](C)(C)C(C)(C)C)c(=O)n(CC#N)c1=O", "strain": "IIIB", "method": "syncytia", "result": ">10 µM"}
{"SMILES": "Cc1cn([C@H]2C[C@H](N=[N+]=[N-])[C@@H](CO)O2)c(=O)[nH]c1=O", "strain": "J-2 (RT-Y181C)", "changes": "RT-Y181C", "method": "cytopathic effect", "result": "0.015 µM"}
{"SMILES": "Cc1cc(C)nc(N2C(=O)CSC2c2c(Cl)cccc2Cl)n1", "changes": "RT-E138K", "method": "cytopathic effect", "result": "0.039 µM"}

Repeating the final 5 entries:

SMILES	strain	changes	method	conditions	result
O=c1[nH]cnc2c1ncn2[C@H]1CC[C@@H](CO)O1	IIIB TIBO R82913 STR-2 (RT K103N)	RT-K103N	syncytia	-	7.5 µM
COc1cc(C)nc(N2C(=O)CSC2c2c(Cl)cccc2Cl)n1	-	RT-E138K	cytopathic effect	-	0.07 µM
Cc1cn([C@@H]2O[C@H](CO[Si](C)(C)C(C)(C)C)[C@@H](O)[C@H]2O[Si](C)(C)C(C)(C)C)c(=O)n(CC#N)c1=O	IIIB	-	syncytia	-	>10 µM
Cc1cn([C@H]2C[C@H](N=[N+]=[N-])[C@@H](CO)O2)c(=O)[nH]c1=O	J-2 (RT-Y181C)	RT-Y181C	cytopathic effect	-	0.015 µM
Cc1cc(C)nc(N2C(=O)CSC2c2c(Cl)cccc2Cl)n1	-	RT-E138K	cytopathic effect	-	0.039 µM